Test results as given in patent publication US20120207760A1, “Compositions and Methods for the Therapy and Diagnosis of Influenza” (THERACLONE SCIENCES, published 2012).

Experiments:
[1] = target: recombinant soluble homotrimeric HA of A/Anhui/1/05 - H5N1 (Influenza A virus A/Anhui/1/2005 (H5N1))
[2] = target: recombinant soluble homotrimeric HA of A/northern shoveler/California/HKWF115/2007 - H6N1 (Influenza A virus A/northern …); experiment: micro-array; captured IgG, V5-tagged trimeric HA
[3] = target: recombinant soluble homotrimeric HA of A/Egypt/3300-NAMRU3/08 - H5N1 (Influenza A virus …); experiment: micro-array; captured IgG, V5-tagged trimeric HA
[4] = target: recombinant soluble homotrimeric HA of A/duck/Yangzhou/02/2005 - H8N4 (Influenza A virus …); experiment: micro-array; captured IgG, V5-tagged trimeric HA
[5] = target: recombinant soluble homotrimeric HA of A/Hong Kong/156/97 - H5N1 (Influenza A virus A/Hong Kong/156/97 …); experiment: micro-array; captured IgG, V5-tagged trimeric HA
[6] = target: recombinant soluble homotrimeric HA of A/chicken/Vietnam/NCVD-016/08 - H5N1 (Influenza A virus …); experiment: micro-array; captured IgG, V5-tagged trimeric HA
[7] = target: recombinant soluble homotrimeric HA of A/Netherlands/219/03 (H7N7) (Influenza A virus A/Netherlands/219/03 …)
[8] = target: recombinant soluble homotrimeric HA of A/Wisconsin/67/05 (H3N2) (Influenza A virus A/Wisconsin/67/05 …)
[9] = target: recombinant soluble homotrimeric HA of A/northern shoveler/California/HKWF115/07 (Influenza A virus A/northern …); experiment: microarray, BCC supernatant IgG, trimeric HA
[10] = target: recombinant soluble homotrimeric HA of A/swine/Ontario/01911-2/99 (H4N6) (Influenza A virus …); experiment: microarray, BCC supernatant IgG, trimeric HA
[11] = target: recombinant soluble homotrimeric HA of A/Hong Kong/2108/03 (H9N2) (Influenza A virus A/Hong Kong/2108/03 …); experiment: microarray, BCC supernatant IgG, trimeric HA
[12] = target: recombinant soluble homotrimeric HA of A/California/4/09 (H1N1) (Influenza A virus A/California/4/09 …); experiment: microarray, BCC supernatant IgG, trimeric HA
[13] = target: recombinant soluble homotrimeric HA of A/duck/Yangzhou/02/05 (H8N4) (Influenza A virus …); experiment: microarray, BCC supernatant IgG, trimeric HA
[14] = target: recombinant soluble homotrimeric HA of A/Solomon Islands/3/06 (H1N1) (Influenza A virus A/Solomon …); experiment: microarray, BCC supernatant IgG, trimeric HA
[15] = target: recombinant soluble homotrimeric HA of A/chicken/Vietnam/NCVD-016/08 (H5N1) (Influenza A virus …); experiment: microarray, BCC supernatant IgG, trimeric HA
[16] = target: recombinant soluble homotrimeric HA of A/Indonesia/5/05 (H5N1) (Influenza A virus A/Indonesia/5/05 …)
[17] = target: recombinant soluble homotrimeric HA of A/Anhui/1/05 (H5N1) (Influenza A virus A/Anhui/1/05 (H5N1))
[18] = target: recombinant soluble homotrimeric HA of A/Egypt/3300-NAMRU3/08 (H5N1) (Influenza A virus …); experiment: microarray, BCC supernatant IgG, trimeric HA

Binder	Trimeric HA Binding: RLU [1]	Trimeric HA Binding: RLU [5]	Trimeric HA Binding: RLU [7]	Trimeric HA Binding: RLU [8]	Trimeric HA Binding: RLU [9]	Trimeric HA Binding: RLU [10]	Trimeric HA Binding: RLU [13]	Trimeric HA Binding: RLU [14]	Trimeric HA Binding: RLU [15]	further results
TCN-552 (5249_I23) (antibody, V domains shown) VH: QVQVVQSGAEVKKPGSSVRVSCQASGGTFMNYAIIWVRRAPGQGLEWMGGIIPVFPTPNYAQMFQGRVTISTDESRSTSFLELTNLRYEDTAVYYCARRIYHGGNSGFDFWGQGTLVTVSS VL: EIVLTQSPATLSLSPGERATLSCRASQSVGNYLAWYQQKPGQAPRLLIYDSSNRAPGIPARFSGSGSGTDFTLTISSLAPEDFAVYYCQQRSKWPPMYSFGHGTKLEIK	9010 RLU	36300 RLU	–	–	–	–	–	–	–	Trimeric HA Binding: RLU [2]: 43900 RLU; Trimeric HA Binding: RLU [3]: 21200 RLU; Trimeric HA Binding: RLU [4]: 15900 RLU; Trimeric HA Binding: RLU [6]: 34500 RLU
TCN-527 (5086_C06) (antibody, V domains shown) VH: QVQLQESGPGLVKPSETLSLNCAVSGGSISNYYWSWIRQPPGKGLEWIGYISYNGRPKYNPSLTSRVTISVDTSKDQFSLELRSVTAADTALYYCARETRFGELLSPYDAFEIWGQGTMVTVSS VL: DIQMTQSPSSLSASVGDRVTMTCRASQNIRSYLNWYQQRPGTAPKLLIYAASTLHSGVPSRFSGGGSGTDFTLTINNLQPEDFASYYCQQSYDNPQTFGQGTKVEIK	–	–	8890 RLU	5720 RLU	30300 RLU	7690 RLU	28800 RLU	16500 RLU	–	Trimeric HA Binding: RLU [11]: 16000 RLU; Trimeric HA Binding: RLU [12]: 28000 RLU
TCN-532 (5262_H18) (antibody, V domains shown) VH: QVQLQESGPGLVKPSETLSLTCTVSGGSVSSETYYWSWIRQPPGKGLEWIGYIYYIGNTDYRPSLKSRVTISLDTSKNQFSLKLSSVTAADTAVYYCARGAYYDSSGYPAFYIWGQGTMVTVSS VL: QSVLTQPPSVSGAPGQRVTISCTGSSSNIGSDYDVHWYKQLPGTAPKLLIFGNSNRPSGVPDRFSGSKSGTSASLAITGLQAEDEADYYCQSYDSSLSGFHVFGSGTKVTVL	–	–	327 RLU	18000 RLU	511 RLU	119 RLU	–	327 RLU	46 RLU	–
TCN-550 (5096_F06) (antibody, V domains shown) VH: QVQLQESGPGLVKPSETLSLTCTVSGASINSHYWSWIRQPPGKGLEWIGYVYYSGSTTYNPSLKSRVTLSVDTSKNQFSLNLSSVTAADTAFYYCARHPYDVLTGSGDWFDPWGQGTLVTVSS VL: SYVLTQAPSVSVAPGQTARITCGGNAIGSKKVHWYQHKAGQAPVLVVYDDTDRPSGIPERFSGSNSWSTATLTINRVEAGDEADYYCQVWDFTIDHVVFGGGTKLTVL	–	–	–	26300 RLU	964 RLU	–	407 RLU	204 RLU	361 RLU	Trimeric HA Binding: RLU [16]: 9100 RLU; Trimeric HA Binding: RLU [11]: 2280 RLU
TCN-539 (5056_A08) (antibody, V domains shown) VH: QVQLVESGGGVVQPGRSLRLSCAASEITFITYAMHWVRQAPGKGLEWVALISDDGSNKFYADSVKGRFTISRDNSKNTLYLQMNSLRAEDTAAYYCAREGVYFDSGTYRGYFDYWGQETLVTVSS VL: EIVLTQSPATLSLSPGERATLSCRASQSVSSYLAWYQQKPGQAPRLLIYDASNRATGIPARFSGSGSGTDFTLTISSLEPEDFAVYYCQQRSHWPPITFGQGTRLEIK	3240 RLU	1450 RLU	–	–	–	–	–	–	–	Trimeric HA Binding: RLU [6]: 3500 RLU
TCN-531 (5091_H13) (antibody, V domains shown) VH: EVQLVESGGDLVQPGRSLKLSCTGSGFTFGDYGVTWVRQAPGKGLEWVGFIRTRPWGGTADTAASVKGRFTISRDDSKSLAYLQMNSLKTEDTAVYYCCRDAPPNVEVASMTNWYFDLWGRGTLVTVSS VL: DIQLTQSPSSLSASVGDRVTITCRASQGILNCLAWYQQKPGKVPNLLMYAASTLQSGVPSRFSGSGFGTDFTLTISSLQPEDVATYYCQTYGGVSTFGGGTKVEIR	–	–	–	7090 RLU	–	–	3120 RLU	–	–	Trimeric HA Binding: RLU [17]: 3610 RLU
TCN-546 (5089_L08) (antibody, V domains shown) VH: QVQLQQWGAGLLKPSETLSLTCGVYGGSLSDYYWSWIRQPPGKGLEWIGEINHSGGTNYNPSLKRRVTISVDTSKKQFSLKMNSVTAADTAVYYCARGTDPDTEVYCRAGNCAAFDFWGQGTLVTVSS VL: EIVLTQSPGTLSLSPGERATLSCRASHFVIGRAVAWYQQKPGQAPRLLIYGASSRATGIPDRFSGSGSGTDFTLTISRLETEDFAVFYCQHYGSSPRYAFGQGTKLEIK	33300 RLU	1240 RLU	–	–	–	–	–	–	–	Trimeric HA Binding: RLU [2]: 2430 RLU; Trimeric HA Binding: RLU [3]: 53000 RLU; Trimeric HA Binding: RLU [4]: 11400 RLU; Trimeric HA Binding: RLU [6]: 2940 RLU
TCN-563 (5237_B21) (antibody, V domains shown) VH: QVQLAQSGAEVKRPGSSVKVSCTASGGIFRKNAISWVRQAPGQGLEWMGGIIAVFNTANYAQKFQGRVKITADESGNTAYMELSSLRSDDTAVYYCASHPKYFYGSGSYPDFWGQGTLVTVSS VL: QSALTQPRSVSGSPGQSVTISCTGSSSDVGASNSVSWYQQHPGKAPKLVIYDVTERPSGVPHRFSGSKSGNTASLTVSGLQPEDEADYFCCAYGGKYLVVFGGGTKVTVL	–	–	7520 RLU	40800 RLU	27300 RLU	4500 RLU	46700 RLU	30000 RLU	41000 RLU	Trimeric HA Binding: RLU [18]: 27500 RLU; Trimeric HA Binding: RLU [12]: 45200 RLU
TCN-528 (5087_P17) (antibody, V domains shown) VH: QVQLVQSGSEVKKPGASVKVSCKASGYTFTNYDINWIRQAPGQGLEWMGWINPNSGTTGSAQRFQGRVTITVDTSITTVYMELSSLRSDDTAIYYCARGRELLRLQHFLTDSQSERRDCFDPWGQGTLVTVSS VL: DIQMTQSPSSLSASVGDRVTITCRANQDIGIYLNWYQQNPGKVPKLLLHGASSLQGGVPSRFSASGSGTDFTLTIHSLQPEDLATYYCQQSRRLPYTFGQGTRVELK	–	–	49300 RLU	48800 RLU	46800 RLU	47500 RLU	38400 RLU	44800 RLU	38200 RLU	Trimeric HA Binding: RLU [11]: 42000 RLU; Trimeric HA Binding: RLU [12]: 48800 RLU
TCN-554 (5277_M05) (antibody, V domains shown) VH: QVQLVQSGADLKKPGASVKVSCKASGYTFTDYYIHWVRQAPGQGLEWMGWINPESGDTKYAQKFQGRVTMTRDTSITTAYMELGRLRSDDTAVYYCARDVSTTWSWFAPWGQGTLVTVSS VL: DIVMTQSPDSLAVSLGERATINCRSSQSIFHNSNNENYLAWYQQKPGQPPKLLIYWASTRESGVPDRFSGSGSGTDFTLTISSLQAEDVAVYFCQQYYNAPLTFGGGTKVEIK	–	–	610 RLU	46500 RLU	–	78 RLU	–	115 RLU	250 RLU	–
TCN-551 (5243_D01) (antibody, V domains shown) VH: EVQLVQSGSEVKKPGESLKISCKGSGYSFSNYWIGWVRHMPGKGLEWMGIIYPGDSDTRYSPSFQGQVTMSADKSSSTVYLQWSSLKASDTAIYYCARRGGHSFGYGSGGDTHSEFDSWGQGTLVTVSS VL: QSVLTQSPSVSAAPGQKVTISCSGSDSNIGDYFVCWYQHLPGKPPQLLIYENNKRPSGIPDRFSGSKSGTSATLGITGIQTGDEADYYCATWDGSLSAWVFGGGTKLTVL	2640 RLU	792 RLU	–	–	–	–	–	–	–	–
